Pooled drug test results. Numbers come from NIAID ChemDB, via PubChem.

Shared fields: whole-cell or culture tests; organism: Rhinovirus; endpoint: inhibition

An empty or dashed field is not shown.

SMILES	dose	strain	cell line	method	value
CN(C)c1nc(C(F)(F)F)nc2c1ncn2Cc1ccc(Cl)cc1Cl	8 µM	Serotype 4	M-HELA	plaque count	25%
CC1(C)COC(c2ccc(OCCN3CCN(c4ccc(Cl)nn4)CC3)cc2)=N1	20 µg/mL	100 serotypes			53%
CN(C)c1nc(C(F)(F)F)nc2c1ncn2Cc1ccc(Cl)c(N)c1	8 µM	Serotype 13	M-HELA	plaque count	18%
N#Cc1cc([N+](=O)[O-])ccc1Oc1ccc(Cl)c(Cl)c1	0.25 µg/mL	HANK	VERO	plaque count	76.3%
O=C(Nc1ccc2c(O)c(N=Nc3ccc(N=Nc4ccc(S(=O)(=O)O)cc4)cc3)c(S(=O)(=O)O)cc2c1)c1ccccc1	50 µg/mL		Human amnion AV3 cells	cytopathic effect	45%
Cc1cccc(C2=CCN(c3ccc(Cl)nn3)CC2)c1	0.375 µg/mL	17 serotypes			53%
O=S(=O)(O)c1ccc2ccc(S(=O)(=O)O)cc2c1	5 µg/mL		Human amnion AV3 cells	cytopathic effect	10%
CN(C)c1nc(C(F)(F)F)nc2c1ncn2Cc1ccc(Cl)c(NC=O)c1	8 µM	Serotype 19	M-HELA	plaque count	18%
O=C(O)Cc1csc(/N=C2\SC[C@@H]3Cc4ccccc4CN23)n1	7 µg/mL	Serotype 4	MRC-5	cytopathic effect	80–100%
CS(=O)(=O)c1ccc2c(c1)CCC(c1ccc(Cl)c(Cl)c1)O2	0.5 µg/mL	100 serotypes			53%
CN(C)c1nc(C(F)(F)F)nc2c1ncn2Cc1ccc(C(F)(F)F)cc1	8 µM	Serotype 3	M-HELA	plaque count	44%
Nc1ccc2cc([N+](=O)[O-])cc(S(=O)(=O)[O-])c2c1	10 µg/mL		Human amnion AV3 cells	cytopathic effect	5%
CCOC(=O)c1csc(N2CCN(Cc3cc(C)ccc3C)CC2)n1	0.2 µg/mL	100 serotypes			18%
Nc1ccc2c(O)cc(S(=O)(=O)[O-])cc2c1S(=O)(=O)[O-]	5 µg/mL		Human embryonic lung cells	cytopathic effect	55%
Cc1ccc(Cn2cnc3c(N(C)C)nc(C(F)(F)F)nc32)cc1	2.5 µM	Serotype 4	M-HELA	plaque count	41%
O=S(=O)(O)c1cc(O)c2c(O)c(N=Nc3ccccc3)c(S(=O)(=O)O)cc2c1	5 µg/mL		Human embryonic lung cells	cytopathic effect	50%
CN(C)c1nc(C(F)(F)F)nc2c1ncn2Cc1ccc(-c2ccccc2)cc1	8 µM	TYPE 1B	M-HELA	plaque count	36%
O=S(=O)([O-])c1ccc(O)c2ccccc12	50 µg/mL		Human amnion AV3 cells	cytopathic effect	15%
Cc1ccc(N2CCC(c3cccc(C(F)(F)F)c3)C2)nn1	5.7 µg/mL	100 serotypes			71%
O=S(=O)(O)c1cccc2c(O)cccc12	10 µg/mL		Human embryonic lung cells	cytopathic effect	0%
CN(C)c1nc(C(F)(F)F)nc2c1ncn2Cc1ccccc1Cl	8 µM	Serotype 21	M-HELA	plaque count	38%

A second listing of 2 rows from above:

SMILES | dose | strain | cell line | method | value
O=C(Nc1ccc2c(O)c(N=Nc3ccc(N=Nc4ccc(S(=O)(=O)O)cc4)cc3)c(S(=O)(=O)O)cc2c1)c1ccccc1 | 50 µg/mL |  | Human amnion AV3 cells | cytopathic effect | 45%
CN(C)c1nc(C(F)(F)F)nc2c1ncn2Cc1ccc(Cl)c(NC=O)c1 | 8 µM | Serotype 19 | M-HELA | plaque count | 18%

Two numbers with a dash give a range or band. Percent inhibition refers to the dose given; in toxicity tests it is the harm to the cells. Lines come from different laboratories, so protocols vary.